Source: patent publication US20230097866A1
Converted amounts (≈) assume the structure as drawn.

What follows are compounds tested on S. aureus ATCC 29213 (assay: MIC, CLSI broth microdilution, S. aureus ATCC 29213).
Format: cell-based, Staphylococcus aureus
In the case of `COc1ccc2ncc(F)c(CC[C@]3(O)CC[C@H](NCc4ccc5c(c4)OCCO5)CC3)c2n1` (relative stereo), the “MIC ATCC 29213” value is reported as 1 µg/mL (≈ 2.14 µM).
For `COc1ccc2ncc(F)c(CC[C@]3(O)CC[C@@H](NCc4ccc5c(c4)OCCO5)CC3)c2n1` (relative stereo), the “MIC ATCC 29213” value was 0.063 µg/mL (≈ 0.135 µM).
`COc1ccc2ncc(F)c(CC[C@]3(O)CC[C@H](NCc4ccc(Cl)c(Cl)c4)CC3)c2n1` (relative stereo) was tested, and the “MIC ATCC 29213” value was 0.125 µg/mL (≈ 0.261 µM).
